PubChem BioAssay AID624099 | ICCB-Longwood, 2012

Purpose: 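Knock-downs relieving repression by E2 of an HPV18 LCR luciferase reporter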 (primary screen)
System: human C33A cervical carcinoma cells (HPV-negative) stably expressing BPV1 E2 and an HPV18 LCR luciferase reporter
Reagent: siRNA pool against human genes, 40 nM
Duration: 72 h
Detection: 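HPV18 LCR reporter light per well, converted to plate-wise z-scores that exclude control wells, and averaged over triplicate plates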
Reading the numbers: mean z-score and z-score: higher = stronger reporter signal, weaker E2 silencing
Hit rule: 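Hit if mean z-score reaches 2 and two or more of three replicate z-scores also reach 2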
The deposit covers about 21,000 reagents; below is a part drawn at random. Over the whole deposit, 497 (2.4%) are marked active. 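Higher z means weaker E2 silencing; only reporter increases were scored, and knock-downs that hurt cell survival may mask genuine repressor factors.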 Unmarked entries are inactive.

no.	Gene	mean z-score	z-score, replicate A	z-score, replicate B	z-score, replicate C
1	HOXD10 (homeobox D10)	0	0.16	-0.19	0.03
2	TASP1 (taspase 1)	0.74	0.69	1.04	0.5
3	COX7A2 (cytochrome c oxidase subunit 7A2)	-2.02	-2.09	-1.81	-2.16
4	RMP64 (ribonuclease MRP subunit p64)	0.13	0.35	-0.14	0.17
5	LOC388454 (retired record)	0.6	0.62	0.52	0.66
6	ZRSR2P1 (ZRSR2 pseudogene 1)	-0.11	-0.14	-0.11	-0.07
7	KIF12 (kinesin family member 12)	-0.12	-0.16	0.01	-0.22
8	NLE1 (notchless homolog 1)	0.41	0.11	0.51	0.6
9	GCA (grancalcin)	0.75	0.73	0.46	1.06
10	LOC391509 (retired record)	0.99	0.5	1.28	1.19
11	ZPBP2 (zona pellucida binding protein 2)	-1.58	-1.93	-1.55	-1.26
12	DMAC1 (distal membrane arm assembly component 1)	-1.13	-1.06	-0.99	-1.32
13	RPL10P16 (ribosomal protein L10 pseudogene 16)	-5.72	-5.95	-5.58	-5.64
14	CFAP97D1 (CFAP97 domain containing 1)	-0.84	-0.81	-0.8	-0.92
15	FRMPD1 (FERM and PDZ domain containing 1)	-1.94	-1.65	-2.24	-1.92
16	TMSB4Y (thymosin beta 4 Y-linked)	1.01	1.06	0.69	1.28
17	TMEM209 (transmembrane protein 209)	0.19	-0.06	0.07	0.55

Reprinted from the listing, 2 entries:
no.	Gene	mean z-score	z-score, replicate A	z-score, replicate B	z-score, replicate C
1	HOXD10 (homeobox D10)	0	0.16	-0.19	0.03
2	TASP1 (taspase 1)	0.74	0.69	1.04	0.5

More results follow.
no.	Gene	mean z-score	z-score, replicate A	z-score, replicate B	z-score, replicate C
18	LINC02381 (long independently transcribed non-coding RNA 2381)	0.28	0.39	0.26	0.18
19	SYT6 (synaptotagmin 6)	-0.83	-0.73	-0.63	-1.13
20	ZNF385C (zinc finger protein 385C)	-0.08	-0.4	0.26	-0.11
21	C6orf141 (chromosome 6 open reading frame 141)	-1.64	-1.54	-1.65	-1.74
22	C4BPA (complement component 4 binding protein alpha)	-0.46	-0.29	-0.3	-0.78
23	EZR (ezrin)	0.28	0.07	0.37	0.38
24	EIF2AK3 (eukaryotic translation initiation factor 2 alpha kinase 3)	0.75	0.61	0.95	0.68
25	UFSP1 (UFM1 specific peptidase 1)	-0.57	-0.27	-0.75	-0.7
26	ERBB3 (erb-b2 receptor tyrosine kinase 3)	-1.41	0.95	0.73	-5.92
27	TALDO1 (transaldolase 1)	-1.1	-1.32	-1.27	-0.72
28	ACRV1 (acrosomal vesicle protein 1)	0.07	0.21	0.05	-0.06
29	OR1F1 (olfactory receptor family 1 subfamily F member 1)	2.75 (active)	2.64	3.08	2.53
30	SIX3 (SIX homeobox 3)	-1.09	-1.25	-1.09	-0.92
31	MVP (major vault protein)	1.05	1.03	0.82	1.29
32	ZMYND15 (zinc finger MYND-type containing 15)	0.11	0	0.19	0.14
33	LINC01089 (long independently transcribed non-coding RNA 1089)	-1.91	-1.91	-1.86	-1.96
34	STAR (steroidogenic acute regulatory protein)	-0.15	-0.34	-0.1	-0.01
35	TNK1 (tyrosine kinase non receptor 1)	0.66	0.34	0.91	0.72
36	C1orf74 (chromosome 1 open reading frame 74)	-0.87	-0.52	-0.88	-1.21
37	TMEM200B (transmembrane protein 200B)	0.34	0.49	-0.1	0.64
38	DOCK8 (dedicator of cytokinesis 8)	-1.81	-1.87	-2.06	-1.49
39	LOC390736 (retired record)	0.25	0.24	0.04	0.48
